Results on two compounds are retold here after paper PMC4658139 (PLoS ONE, 2015).

Data set [1] can be described thus: in vitro. To be noted: pig; for Papp A→B: p c, permeability coefficient apical to basolateral.
In the next data set the test system is PBCEC monolayer. To be noted: pig.
Data set [2] in a line: in vitro. To be noted: pig.

As for `CC(=O)O[C@@H]1C[C@]2(C)[C@@]3(CO)[C@H](O)C(=O)C(C)=C[C@H]3O[C@H]1[C@@]21CO1` [3-AcDON, 3-acetyldeoxynivalenol], in the data set “in vitro [1]”, the recovery was roughly 100% and the Papp A→B (as a rule, the apparent permeability from the apical to the basolateral side of a cell layer) is 6.67 ± 1.53 ×10⁻⁶ cm/s.

For `CC1=C[C@H]2O[C@@H]3[C@H](O)C[C@](C)([C@@]2(CO)[C@H](O)C1=O)[C@]31CO1` [DON, deoxynivalenol], in the data set with PBCEC monolayer, the “p c, permeability coefficient apical to basolateral” value is given as 0.88±0.29 10^-6 cm/s. For the same compound, in the data set “in vitro [2]”, the viability (in general, a per cent measure of how many cells are alive, often set against a control) at 10 µM is 85 ± 7%. In the data set “in vitro [1]”, this compound had a recovery of roughly 100% and a Papp A→B of 1.18 ± 0.31 ×10⁻⁶ cm/s.
